Literature values in patent publication US20080255099A1 (priority 2004, published 2008).

Tested on: human tumors
Settings: human tumors transplanted in nude mice; Welsh et al. 2004; cited from earlier work

Compound: N[C@@H](Cc1ccc([N+]([O-])(CCCl)CCCl)cc1)C(=O)O
- antitumoral activity (in words): marked antitumoral activity
